According to patent US20030109675A1 (priority 2001, published 2003):

Key:
[1] = molecular target: T1, SPCJ-13 - Abz-HYTAVVK-DAP(Dnp)-NH2
T1 chain: HYTAVVK

PapA-6H4A, P04127 = molecular target: T2, PapA-6H4A, P04127
T2 chain: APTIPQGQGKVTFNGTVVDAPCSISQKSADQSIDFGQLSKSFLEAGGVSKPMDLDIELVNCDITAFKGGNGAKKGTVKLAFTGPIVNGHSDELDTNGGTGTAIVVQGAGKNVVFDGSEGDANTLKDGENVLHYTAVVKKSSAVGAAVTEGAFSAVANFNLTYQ

[2] = molecular target: T3, SPCJ-12 - Abz-HYTAVVKKSSAV-DAP(Dnp)-NH2
T3 chain: HYTAVVKKSSAV

[3] = molecular target: T4, NGHSDEL (SEQ ID NO: 12), PapA 7-mer scan peptide
T4 chain: NGHSDEL

[4] = molecular target: T5, HYTAVVKKSSAV (SEQ ID NO: 3), PapA 12-mer scan peptide
T5 chain: HYTAVVKKSSAV

B1: DegP protease (protein)
chain: AETSSATTAQQMPSLAPMLEKVMPSVVSINVEGSTTVNTPRMPRNFQQFFGDDSPFCQEGSPFQSSPFCQGGQGGNGGGQQQKFMALGSGVIIDADKGYVVTNNHVVDNATVIKVQLSDGRKFDAKMVGKDPRSDIALIQIQNPKNLTAIKMADSDALRVGDYTVAIGNPFGLGETVTSGIVSALGRSGLNAENYENFIQTDAAINRGNSGGALVNLNGELIGINTAILAPDGGNIGIGFAIPSNMVKNLTSQMVEYGQVKRGELGIMGTELNSELAKAMKVDAQRGAFVSQVLPNSSAAKAGIKAGDVITSLNGKPISSFAALRAQVGTMPVGSKLTLGLLRDGKQVNVNLELQQSSQNQVDSSSIFNGIEGAEMSNKGKDQGVVVNNVKTGTPAAQIGLKKGDVIIGANQQAVKNIAELRKVLDSKPSVLALNIQRGDSTIYLLMQ
cleavage in the fluorescent-quench peptide assay [1]: DegP cleaved SPCJ-13 in a time-dependent fashion | cleavage of PapA-6H4A that had not been reduced and carboxymethylated (PapA-6H4A, P04127): minimal by comparison to its activity on PapA-6H4A-rcm (data not shown) | cleavage in the fluorescent-quench peptide assay [2]: DegP cleaved SPCJ-12 in a time-dependent fashion | cleavage in the solid-phase peptide scan (liberated fluorescence) [3]: Of the other sequences identified by the peptide scanning, ... […] | cleavage in the solid-phase peptide scan (liberated fluorescence) [4]: the most efficiently cleaved region, represented by the sequence-HYTAVVKKSSAV
